{"source": "ChEMBL document CHEMBL1153554", "about": "“Mechanisms by which the G333D mutation in human immunodeficiency virus type 1 Reverse transcriptase facilitates dual resistance to zidovudine and lamivudine” (Antimicrob Agents Chemother, 2008)", "key": {"[1]": {"system": "Human immunodeficiency virus type 1 reverse transcriptase (Human immunodeficiency virus 1), Q72547 [M41L,L210W,T215Y,M184V]", "assay": "Ratio of Kpol to Kd for HIV1 LAI reverse transcriptase M41L/L210W/T215Y/M184V mutant", "method_in_brief": "(§1)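 Pre-steady-state rapid quench: 400 nM active-site RT and 40 nM ³²P-P20/T57 DNA T/P were preincubated in 50 mM Tris-HCl pH 7.5, 50 mM KCl, then mixed with nucleotide in the same buffer containing 20 mM MgCl₂. Quenched with 0.3 M EDTA from 10 ms to 30 min, run on urea-PAGE. kobs came from single-exponential fits; kpol and Kd came from a hyperbolic fit versus nucleotide concentration.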"}, "[2]": {"system": "Human immunodeficiency virus type 1 reverse transcriptase (Human immunodeficiency virus 1), Q72547 [M41L,L210W,T215Y]", "assay": "Ratio of Kpol to Kd for HIV1 LAI reverse transcriptase M41L/L210W/T215Y mutant", "method_in_brief": "as §1"}, "[3]": {"system": "Human immunodeficiency virus 1", "assay": "Ratio of Kpol to Kd for HIV1 LAI reverse transcriptase M41L/L210W/T215Y/M184V/G333D mutant", "method_in_brief": "as §1"}, "[4]": {"system": "Human immunodeficiency virus type 1 reverse transcriptase (Human immunodeficiency virus 1), Q72547 [M184V]", "assay": "Ratio of Kpol to Kd for HIV1 LAI reverse transcriptase M184V mutant", "method_in_brief": "as §1"}}}
{"smiles": "Cc1cn([C@H]2C[C@H](O)[C@@H](COP(=O)(O)OP(=O)(O)OP(=O)(O)O)O2)c(=O)[nH]c1=O", "note": "[DEOXYTHYMIDINE_TRIPHOSPHATE]", "values": [{"measurement": "Ratio", "setting": "[1]", "value": 1.98}, {"measurement": "Ratio", "setting": "[2]", "value": 4.17}, {"measurement": "Ratio", "setting": "[3]", "value": 1.7}, {"measurement": "Ratio", "setting": "[4]", "value": 2.3}]}
